Measured values from several laboratories, pooled; numbers as filed in NIAID ChemDB.

All rows: whole-cell or culture tests; species: HIV-1

ECn is the concentration giving n% inhibition of infection, replication or growth. Blank or dashed fields: not listed here. Rows are shuffled and stem from different studies.

structure,strain or isolate,cell line,changes,read-out,read by,conditions,value
Cc1cccc(C)c1CNC(=O)[C@H]1N(C(=O)[C@@H](O)C[C@@H](Cc2ccccc2)C(=O)N[C@H]2c3ccccc3C[C@H]2O)CSC1(C)C,,MT-4,PR-V18C,EC95,p24,,0.031 µM
Cc1ccc2c(c1)n(CCNC(=S)Nc1ccc(Br)cn1)c(=O)c1cccn12,IIIB,C8166,,EC50,cytopathic effect / MTT,,0.38 µM
Cc1cc(C#Cc2ccccc2N)cc(C)c1Oc1ccnc(Nc2ccc(C#N)cc2)n1,IIIB,MT-4,F227L + V106A,EC50,MTT,,>8.88 µM
NC(=NCCNc1ccc2[nH]ccc2c1)N[N+](=O)[O-],IIIB,MT-4,,EC50,MTT,,>400 µM
Cc1cc(C)c(CN2CCC(N=C3C=C(Cc4cccc5ccccc45)NS(=O)(=O)N3)CC2)c(C)c1,IIIB,MT-4,,EC50,MTT,,>70.22 µM
CC(C)=CCC/C(C)=C/C[N+]1(C/C=C(\C)CCC=C(C)C)CCc2cc(O)c(O)cc2[C@H]1Cc1ccc(O)c(O)c1,IIIB,H9,,EC50,p24 / ELISA,,>2.5 µg/mL
NC(=O)c1ncn([C@H]2O[C@@H](COP(=O)(O)OC[C@@H]3C=C[C@H](n4cnc5c(=O)[nH]cnc54)O3)[C@H](O)[C@@H]2O)n1,IIIB,MT-4,RT-D67N K70R K172R,EC50,cytopathic effect / MTT,,>17.5 µM
NC(=NCCCNc1ccc2[nH]ccc2c1)N[N+](=O)[O-],IIIB,MT-4,,EC50,MTT,,>360 µM
Cc1cc(C#CC2CC2)cc(C)c1Oc1ccnc(Nc2ccc(C#N)cc2)n1,IIIB,MT-4,E138K,EC50,MTT,,0.046 µM
Cc1cn([C@H]2C[C@H](N=[N+]=[N-])[C@@H](CO)O2)c(=O)[nH]c1=O,AZT-resistant Clinical isolate,MT-4,,EC50,cytopathic effect / MTT,,>7 µM
CCNc1cccnc1N1CCN(C(=O)c2cc3cc(OC)ccc3[nH]2)CC1,BaL,PBMC,,EC50,p24,,~0.9 µM
C1CNCCNCCCN(CCCN2CCCNCCNCCCNCC2)CCNC1,BaL,PBMC,,EC50,p24,,>6.25 µM
Cc1cn([C@H]2C[C@H](N=[N+]=[N-])[C@@H](COP(=O)(O)OC[C@@H]3O[C@H](n4cnc(C(N)=O)n4)[C@@H](O)[C@H]3O)O2)c(=O)[nH]c1=O,IIIB,MT-4,,EC50,cytopathic effect,,0.004 µM
CCNC(N)=NCCCNc1ccc2[nH]ccc2c1,IIIB,MT-4,,EC50,MTT,,>52.67 µM
CCCCCCCCCCCCCCCCCCOC[C@H](COP(=O)(O)C(=O)O)OCCCC,,HT4 + HT4-6C,,EC50,plaque count,,2.2 µM
CCC[C@@]1(CCc2ccccc2)CC(O)=C([C@H](CC)c2cccc(NS(=O)(=O)c3ccc(C(F)(F)F)cn3)c2)C(=O)O1,477 clinical isolates delavirdine-resistant,PBMC,,EC50,p24,,<0.04 µM
O=c1c2cccn2c2ccccc2n1CCNC(=S)Nc1ccc(Cl)cn1,IIIB,C8166,,EC50,cytopathic effect / MTT,,1.2 µM
COc1cc(C2SCCN2S(=O)(=O)c2cccc3c(N(C)C)cccc23)ccc1O,IIIB,MT-4,,EC50,cytopathic effect / MTT,,2.32 µM
CCCCCCCCCCCCCCCCCCOC[C@H](COP(=O)(O)C(=O)O)OC,,HT4 + HT4-6C,,EC50,plaque count,,1.3 µM
COc1ccc(CN2CCC(N=C3C=C(Cc4ccc(Cl)cc4Cl)NS(=O)(=O)N3)CC2)cc1,IIIB,MT-4,,EC50,MTT,,30.68 µM
CNC(C)[C@H]1O[C@H](O[C@@H]2[C@@H](O)[C@H](O[C@@H]3OC[C@@](C)(O)[C@@H](NC)[C@@H]3O)[C@@H](NC(=O)[C@@H](N)CCCN=C(N)N)C[C@H]2NC(=O)[C@@H](N)CCCN=C(N)N)[C@H](NC(=O)[C@@H](N)CCCN=C(N)N)[C@@H](O)[C@@H]1O,NL4-3,MT-4,,EC50,cytopathic effect / MTT,,24 µM
C1CNCCNCCCNCCNC1,RF,MT-4,,EC50,cytopathic effect / MTT,,106 µM
Nc1ncnc2c1ncn2CCOCP(=O)(O)O,,ATH8,,EC50,trypan blue,,2.5 µM
C1CNCCNCC(CCOCCOCCC2CNCCNCCCNCCNC2)CNCCNC1,IIIB,MT-4,,EC50,cytopathic effect / MTT,5 d,7.47 µM
CC(=O)Nc1cccc(C#Cc2cc(C)c(Oc3ccnc(Nc4ccc(C#N)cc4)n3)c(C)c2)c1,IIIB,MT-4,K103N,EC50,MTT,,0.036 µM
CCCCCCCCCCCCCCCCCCOC[C@H](COP(=O)(O)C(=O)O)OCC,,HT4 + HT4-6C,,EC50,plaque count,,1.9 µM
CC1NCCc2cc(O)c(O)cc21,IIIB,H9,,EC50,p24 / ELISA,,>2.5 µg/mL
CCCCCCCCCCCCCCCCCCOC[C@@H](COP(=O)(O)C(=O)O)OCCCCCCCCCCCC,,HT4 + HT4-6C,,EC50,plaque count,,>100 µM
Cc1ccc(CN2C(=O)CSC2c2c(Cl)cccc2Cl)o1,IIIB,MT-4,RT,EC50,cytopathic effect,,2.13 µM
c1cc(CN2CCCNCCNCCCNCC2)ccc1CN1CCCNCCNCCCNCC1,NL4-3,TZM-bl,,EC50,luminescence,,0.00095 µM
Cc1ccnc2c1NC(=O)c1cccnc1N2C1CC1,IIIB,MAGI + MAGI-CCR5,,EC50,β-galactosidase,3 d,0.298 µM
O=C1CSC(c2ccnc3ccccc23)N1c1ccccn1,IIIB,MT-4,,EC50,cytopathic effect,,33.51 µM
Fc1cccc(Cl)c1C1OCc2nc3ccccc3n21,TSAO-resistant (RT E138K),CEM,RT-E138K,EC50,cytopathic effect / MTT,,≥14.69 µM
NC(N)=NCCCCNc1ccc2[nH]ccc2c1.O=S(O)O,IIIB,MT-4,,EC50,MTT,,>213 µM
O=C1CSC(c2c(F)cccc2Cl)N1Cc1ccco1,IIIB,MT-4,RT,EC50,cytopathic effect,,0.576 µM
O=c1c2cccn2c2cccc(F)c2n1CCNC(=S)Nc1ccc(Br)cn1,IIIB,CEM + CEM-SS,,EC50,cytopathic effect / MTT,,0.00047 µM
c1ccc(C2SCc3nc4ccccc4n32)cc1,IIIB,MT-4,RT,EC50,cytopathic effect,,0.35 µM
Cc1ccc(C)c2c1[nH]c1cc(Cl)ccc12,BaL,TZM-bl,,EC50,luminescence,,3.8 µM
CN1N=C(N)c2cn([C@@H]3O[C@H](COP(=O)(O)O)[C@@H](O)[C@H]3O)c3ncnc1c23,PM16,CEM + CEM-SS,,EC50,XTT,,0.11 µM
Cc1ccccc1CN1CCC(N=C2C=C(Cc3cccc4ccccc34)NS(=O)(=O)N2)CC1,IIIB,MT-4,,EC50,MTT,,28.65 µM
CC(C)Nc1cccnc1N1CCN(C(=O)c2cc3cc(NS(C)(=O)=O)ccc3[nH]2)CC1,BaL,Macrophage + Monocytes/macrophages,,EC50,p24,,0.02 µM
COc1cc(OC)c(C2SCC(=O)N2c2cccc(C)n2)c(OC)c1,IIIB,MT-4,RT,EC50,cytopathic effect,,25.94 µM
Nc1nc(NC2CC2)c2ncn([C@H]3C=C[C@@H](CO)C3)c2n1,,MT-4,RD 22-RTwt,EC50,cytopathic effect / MTT,,1.12 µM
O=C1O[C@H]2[C@@H]3OC(=O)c4cc(O)c(O)c(O)c4-c4c(cc(O)c(O)c4O)C(=O)OC[C@H]2O[C@@H](OC(=O)c2cc(O)c(O)c(O)c2)[C@@H]3OC(=O)c2cc(O)c(O)c3c2[C@@H]2C1=CC(=O)[C@](O)(O3)C2(O)O,NNRTI-resistant (RT Y181C) ARP1013,MAGI,RT-Y181C,EC50,,,2.1 µg/mL
Nc1ccn([C@H]2CC[C@@H](CO)O2)c(=O)n1,IIIB,H9,,EC90,p24,,0.206 µM
O=[N+]([O-])c1ccc(CN2CCC(N=C3C=C(Cc4ccc(Cl)cc4Cl)NS(=O)(=O)N3)CC2)cc1,RES056,MT-4,RT-K103N Y181C,EC50,MTT,,>97.06 µM
Cc1cc(C#Cc2cccnc2)cc(C)c1Oc1ccnc(Nc2ccc(C#N)cc2)n1,IIIB,MT-4,RES056,EC50,MTT,,0.935 µM
O=c1[nH]cnc2c1ncn2[C@H]1CC[C@@H](CO)O1,IIIB MKC-442-resistant (RT Y181C),MT-4,RT-Y181C,EC50,cytopathic effect / MTT,,6.5 µM
Nc1nc(=O)n([C@@H]2CS[C@H](CO)O2)cc1F,HXB2,HT4 + HT4 LacZ-1,,EC50,,,0.09 µM
CN(C)c1cccc2c(S(=O)(=O)N3CCSC3c3cccnc3)cccc12,IIIB-R,MT-4,,EC50,cytopathic effect / MTT,5 d,>2000 µM
Cc1cc2c(cc1C)n1cccc1c(=O)n2CCNC(=S)Nc1ccc(Br)cn1,IIIB,C8166,,EC50,cytopathic effect / MTT,,>2 µM
Nc1nc(=O)n([C@@H]2CC[C@H](CO)O2)cc1F,RTMC (RT D67N K70R T215F K219Q),HT4 + HT4 LacZ-1,RT-D67N K70R T215F K219Q,EC50,,,1 µM
O=S1(=O)NC(Cc2ccc(Cl)cc2Cl)=CC(=NC2CCN(Cc3c(Cl)cccc3Cl)CC2)N1,IIIB,MT-4,,EC50,MTT,,>48.2 µM
Fc1cccc(F)c1C1SCc2nc3ccccc3n21,TIBO R82150-resistant (RT L100I),CEM,RT-L100I,EC50,cytopathic effect / MTT,,3.12 µM
CCCCCCCCCCCCCCCCCCOC[C@@H](COP(=O)(O)C(=O)O)OCCCCCCCC,,HT4 + HT4-6C,,EC50,plaque count,,1.8 µM
CC1c2cc(O)c(O)cc2CCN1C,IIIB,H9,,EC50,p24 / ELISA,,>2.5 µg/mL
O=c1c2cccn2c2cc(Cl)c(Cl)cc2n1CCNC(=S)Nc1ccc(Br)cn1,IIIB,CEM + CEM-SS,,EC50,cytopathic effect / MTT,,3.7 µM
c1ccc(CNCc2ccc(CN3CCCNCCNCCCNCC3)cc2)nc1,RF,MT-4,,EC50,cytopathic effect / MTS,,0.0074 µM
Cc1cn([C@H]2C[C@H](N=[N+]=[N-])[C@@H](CO)O2)c(=O)[nH]c1=O,IIIB,PBMC,,EC50,p24,16 d,0.125 µM
Nc1ccn([C@H]2CC[C@@H](CO)O2)c(=O)n1,,MT-4,RD 22-RTwt,EC50,cytopathic effect / MTT,,0.69 µM
CC(C)=CCC/C(C)=C/C[N+]1(C/C=C(\C)CCC=C(C)C)CCc2cc(O)c(O)cc2[C@H]1C,IIIB,H9,,EC50,p24 / ELISA,,>2.5 µg/mL
Cc1ccnc2c1NC(=O)c1cccnc1N2C1CC1,IIIB,MT-4,RT,EC50,cytopathic effect,,0.048 µM
NC(N)=NCCNc1ccc2[nH]ccc2c1.O=S(O)O,IIIB,MT-4,,EC50,MTT,,>77.68 µM
CC(C)=CCC/C(C)=C/C[N@@+]12CCc3cc(O)c(O)cc3[C@H]1Cc1ccc(O)c(O)c1C2,IIIB,H9,,EC50,p24 / ELISA,,>25 µg/mL

A second listing of 9 rows from above:

O=C1CSC(c2c(F)cccc2Cl)N1Cc1ccco1 ; strain or isolate: IIIB ; cell line: MT-4 ; changes: RT ; read-out: EC50 ; read by: cytopathic effect ; value: 0.576 µM
Cc1cn([C@H]2C[C@H](N=[N+]=[N-])[C@@H](CO)O2)c(=O)[nH]c1=O ; strain or isolate: IIIB ; cell line: PBMC ; read-out: EC50 ; read by: p24 ; conditions: 16 d ; value: 0.125 µM
Nc1ncnc2c1ncn2CCOCP(=O)(O)O ; cell line: ATH8 ; read-out: EC50 ; read by: trypan blue ; value: 2.5 µM
CCC[C@@]1(CCc2ccccc2)CC(O)=C([C@H](CC)c2cccc(NS(=O)(=O)c3ccc(C(F)(F)F)cn3)c2)C(=O)O1 ; strain or isolate: 477 clinical isolates delavirdine-resistant ; cell line: PBMC ; read-out: EC50 ; read by: p24 ; value: <0.04 µM
c1ccc(CNCc2ccc(CN3CCCNCCNCCCNCC3)cc2)nc1 ; strain or isolate: RF ; cell line: MT-4 ; read-out: EC50 ; read by: cytopathic effect / MTS ; value: 0.0074 µM
Cc1ccnc2c1NC(=O)c1cccnc1N2C1CC1 ; strain or isolate: IIIB ; cell line: MT-4 ; changes: RT ; read-out: EC50 ; read by: cytopathic effect ; value: 0.048 µM
NC(N)=NCCNc1ccc2[nH]ccc2c1.O=S(O)O ; strain or isolate: IIIB ; cell line: MT-4 ; read-out: EC50 ; read by: MTT ; value: >77.68 µM
Cc1ccnc2c1NC(=O)c1cccnc1N2C1CC1 ; strain or isolate: IIIB ; cell line: MAGI + MAGI-CCR5 ; read-out: EC50 ; read by: β-galactosidase ; conditions: 3 d ; value: 0.298 µM
CC1NCCc2cc(O)c(O)cc21 ; strain or isolate: IIIB ; cell line: H9 ; read-out: EC50 ; read by: p24 / ELISA ; value: >2.5 µg/mL